Data published in patent publication US7214506B2, “Method for treating onychomycosis” (Kaken Pharmaceutical Co., Ltd., priority 1999, dated 2007).

System: Trichophyton mentagrophytes KD-04 strain
Experiment: Determination of drug remaining in treated skin pieces placed on fungus-containing agar
Settings: skin taken five days after the last treatment, no drug removal; FIG. 1

| Structure (SMILES) | growth inhibition of fungus around treated skin pieces (drug remaining in skin) |
| --- | --- |
| C=C1CCN([C@H](C)[C@](O)(Cn2cncn2)c2ccc(F)cc2F)CC1 [KP-103, (2R,3R)-2-(2,4-difluorophenyl)-3-(4-methylenepiperidine-1-yl)-1-(1H-1,2,4-triazole-1-yl)butane-2-ol] | the growth of fungus was slightly inhibited |
| N#C/C(=C1/SCC(c2ccccc2Cl)S1)n1ccnc1 (centres unmarked) [Lanoconazole, lanoconazole] | the growth of fungus was completely inhibited |
